# Potato spindle tuber viroid, loop 6: variant abundance in plants

Source: Wu et al. 2024 (doi:10.1371/journal.ppat.1012142), supplementary data.

Region: loop 6 of PSTVd (intermediate strain), upper and lower strand joined, each 5' to 3', the first 5 letters being the upper strand, closing pairs included. Wild type: UGACCGCGAG. Varied positions (N): UNNNCGNNNG.

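A pool of all variants was put on leaves of three Nicotiana benthamiana plants. Progeny were sequenced from the inoculated region (day 5), the margin of the inoculated leaf (day 10) and systemic leaves (day 12).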

Numbers give reads per thousand; 0 = not seen among the reads, higher = more abundant.
Each value is the mean of three plants.
"Pool" is the share in the plasmid pool used as inoculum, on the same scale.
The inoculated region was read from the minus strand, the other sites from the plus strand.
Samples held 36,220 to 57,551 reads, so the smallest values rest on one or two reads.

{"sequence": "UAACCGUGUG", "pool": "0.275", "inoculated region": 0.142, "leaf margin": 0.0169, "systemic leaves": 0}
{"sequence": "UAAGCGGAGG", "pool": "0.222", "inoculated region": 0.101, "leaf margin": 0, "systemic leaves": 0.00684}
{"sequence": "UAAGCGUAUG", "pool": "0.248", "inoculated region": 0.113, "leaf margin": 0.166, "systemic leaves": 0}
{"sequence": "UACACGGAGG", "pool": "0.118", "inoculated region": 0.0895, "leaf margin": 0.00920, "systemic leaves": 0}
{"sequence": "UACCCGUAAG", "pool": "0.105", "inoculated region": 0.699, "leaf margin": 0.111, "systemic leaves": 0}
{"sequence": "UAGACGCUGG", "pool": "0.183", "inoculated region": 0.0765, "leaf margin": 0.00920, "systemic leaves": 0}
{"sequence": "UAGACGGGCG", "pool": "0.118", "inoculated region": 0.655, "leaf margin": 0.0852, "systemic leaves": 0.0262}
{"sequence": "UAGACGGUAG", "pool": "0.222", "inoculated region": 0.0594, "leaf margin": 0.0155, "systemic leaves": 0}
{"sequence": "UAGGCGGGUG", "pool": "0.248", "inoculated region": 0.0239, "leaf margin": 0.00773, "systemic leaves": 0}
{"sequence": "UAUUCGGCAG", "pool": "0.288", "inoculated region": 0.562, "leaf margin": 0.118, "systemic leaves": 0}
{"sequence": "UCCCCGAGCG", "pool": "0.275", "inoculated region": 0.0963, "leaf margin": 0.0323, "systemic leaves": 0}
{"sequence": "UCCGCGAAAG", "pool": "0.209", "inoculated region": 0.119, "leaf margin": 0.00920, "systemic leaves": 0}
{"sequence": "UCCGCGCUGG", "pool": "0.170", "inoculated region": 0.0657, "leaf margin": 0, "systemic leaves": 0}
{"sequence": "UCCGCGGCGG", "pool": "0.157", "inoculated region": 0.0958, "leaf margin": 0.0169, "systemic leaves": 0}
{"sequence": "UCGUCGCAGG", "pool": "0.157", "inoculated region": 0.0835, "leaf margin": 0.00920, "systemic leaves": 0}
{"sequence": "UCGUCGUGCG", "pool": "0.235", "inoculated region": 0.0720, "leaf margin": 0.00773, "systemic leaves": 0}
{"sequence": "UCUACGAAGG", "pool": "0.157", "inoculated region": 0.131, "leaf margin": 0.0276, "systemic leaves": 0}
{"sequence": "UCUACGCGUG", "pool": "0.157", "inoculated region": 0.0661, "leaf margin": 0.0585, "systemic leaves": 0}
{"sequence": "UCUUCGAUAG", "pool": "0.366", "inoculated region": 0.0720, "leaf margin": 0.0851, "systemic leaves": 0}
{"sequence": "UGAACGAAAG", "pool": "0.144", "inoculated region": 0.680, "leaf margin": 0.0838, "systemic leaves": 0}
{"sequence": "UGAACGAAGG", "pool": "0.0915", "inoculated region": 0.163, "leaf margin": 0.00920, "systemic leaves": 0}
{"sequence": "UGACCGAAUG", "pool": "0.523", "inoculated region": 0.395, "leaf margin": 0.570, "systemic leaves": 0.124}
{"sequence": "UGACCGAGAG", "pool": "0.275", "inoculated region": 0.608, "leaf margin": 9.54, "systemic leaves": 1.83}
{"sequence": "UGACCGUCGG", "pool": "0.405", "inoculated region": 0.276, "leaf margin": 1.12, "systemic leaves": 0.0802}
{"sequence": "UGAGCGCGCG", "pool": "0.222", "inoculated region": 0.0894, "leaf margin": 0.00773, "systemic leaves": 0}
{"sequence": "UGCCCGUUUG", "pool": "0.340", "inoculated region": 0.0889, "leaf margin": 0.0184, "systemic leaves": 0}
{"sequence": "UGCGCGGGAG", "pool": "0.209", "inoculated region": 0.0897, "leaf margin": 0, "systemic leaves": 0.0263}
{"sequence": "UGCUCGACGG", "pool": "0.275", "inoculated region": 0.0958, "leaf margin": 0, "systemic leaves": 0}
{"sequence": "UGGCCUGUGG", "pool": "0.0131", "inoculated region": 0, "leaf margin": 0, "systemic leaves": 0}
{"sequence": "UGUCCGGCAG", "pool": "0.235", "inoculated region": 0.113, "leaf margin": 0.0184, "systemic leaves": 0}
{"sequence": "UGUGCGCUGG", "pool": "0.235", "inoculated region": 0.0894, "leaf margin": 0, "systemic leaves": 0}
{"sequence": "UGUGCGUCAG", "pool": "0.340", "inoculated region": 0.113, "leaf margin": 0, "systemic leaves": 0}
{"sequence": "UGUUCGGAAG", "pool": "0.144", "inoculated region": 0.0414, "leaf margin": 0, "systemic leaves": 0}
{"sequence": "UUACCGGAAG", "pool": "0.131", "inoculated region": 0.210, "leaf margin": 0.0324, "systemic leaves": 0}
{"sequence": "UUCACGUACG", "pool": "0.288", "inoculated region": 0.605, "leaf margin": 0.0867, "systemic leaves": 0}
{"sequence": "UUGACGCGCG", "pool": "0.170", "inoculated region": 0.0826, "leaf margin": 0, "systemic leaves": 0}
{"sequence": "UUGGCGGCGG", "pool": "0.327", "inoculated region": 0.0592, "leaf margin": 0, "systemic leaves": 0}
{"sequence": "UUUCCGUCCG", "pool": "0.196", "inoculated region": 0.0887, "leaf margin": 0.0155, "systemic leaves": 0}

A selection of 3 entries from above:

{"sequence": "UGACCGUCGG", "pool": "0.405", "inoculated region": 0.276, "leaf margin": 1.12, "systemic leaves": 0.0802}
{"sequence": "UGACCGAAUG", "pool": "0.523", "inoculated region": 0.395, "leaf margin": 0.570, "systemic leaves": 0.124}
{"sequence": "UGAACGAAAG", "pool": "0.144", "inoculated region": 0.680, "leaf margin": 0.0838, "systemic leaves": 0}

Sequences that differ at fixed positions probably stem from PCR or sequencing errors, and defective variants can be carried along by functional ones.
Wild type was 20.7 per thousand in the pool and the most common sequence in every sample (inoculated region 195, 198, 203; leaf margin 629, 591, 734; systemic leaves 942, 870, 868).